A mixed list of measured activities; the numbers were collected in NIAID ChemDB.

All rows: tests on isolated targets; species: HIV-1; target: Protease

Neighbouring rows are from separate reports.

structure	changes	read by	read-out	dose	value
CC(C)(CCCCNC(=O)C1CCCC1)CN(C[C@@H](O)[C@H](Cc1ccccc1)NC(=O)O[C@H]1CO[C@H]2OCC[C@H]21)S(=O)(=O)c1ccc2c(c1)OCO2	-	fluorescence	Ki	-	<0.001 µM
CC(C)C[C@@H](C(=O)NCCc1ccccc1)N1C[C@@H]2O[C@H](C(=O)N3CCCCC3)[C@@H](O2)C1=O	-	FRET	inhibition	10 µM	0%
CN(C)c1cccc(S(=O)(=O)N(C[C@@H](O)[C@H](Cc2ccccc2)NC(=O)O[C@H]2CO[C@H]3OCC[C@H]32)CC(C)(C)CCC#N)c1	-	fluorescence	Ki	-	<0.001 µM
CC[C@@H](C)[C@H](NC(=O)[C@@H]1CCCN1C(=O)[C@@H](O)[C@H](Cc1ccccc1)NC(=O)[C@H](CC(N)=O)NC(=O)OC(C)(C)C)C(=O)NCC1CCCCC1	-	-	inhibition	5 µM	48.1%
O=C(NCCO)[C@@H]1O[C@]2(c3ccccc3)CN(C(c3ccccc3)c3ccccc3)C(=O)[C@H]1O2	-	FRET	inhibition	10 µM	0%
CC(C)(C)NC(=O)[C@@H]1CCCN1C(=O)[C@@H](O)[C@H](Cc1ccccc1)NC(=O)[C@H](CC(N)=O)NC(=O)OCc1cccc2ccccc12	-	-	inhibition	5 µM	98.6%
CC(C)NC(=O)OCCC(C)(C)CN(C[C@@H](O)[C@H](Cc1ccccc1)NC(=O)O[C@H]1CO[C@H]2OCC[C@H]21)S(=O)(=O)c1ccc2c(c1)OCO2	-	fluorescence	Ki	-	<0.001 µM
O=C(N[C@@H](Cc1ccccc1)C(=O)OCc1ccccc1)C(=O)N[C@@H](Cc1ccccc1)C(=O)OCc1ccccc1	-	absorbance	inhibition	10 µM	<10%
CC(C)C[C@@H](CO)NC(=O)[C@H]1O[C@H]2CN(Cc3ccccc3)C(=O)[C@@H]1O2	-	FRET	inhibition	10 µM	0%
CC(C)(C)NC(=O)[C@@H]1CSCN1C(=O)[C@@H](O)[C@H](Cc1ccccc1)NC(=O)[C@H](CC(N)=O)NC(=O)COc1cccc2ccccc12	-	-	inhibition	0.05 µM	91.3%
CCCCNC(=O)[C@H](CC(C)C)N1C[C@@H]2O[C@H](C(=O)N3CCCCC3)[C@@H](O2)C1=O	-	FRET	inhibition	10 µM	0%
C=CCCOC(=O)NCCCC(C)(C)CN(C[C@@H](O)[C@H](Cc1ccccc1)NC(=O)O[C@H]1CO[C@H]2OCC[C@H]21)S(=O)(=O)c1ccc2c(c1)OCO2	-	fluorescence	Ki	-	<0.001 µM
O=C(CCCCCC(=O)N[C@@H](Cc1ccccc1)C(=O)OCc1ccccc1)N[C@@H](Cc1ccccc1)C(=O)OCc1ccccc1	-	absorbance	inhibition	10 µM	<10%
CC(C)(CCN=C(NC#N)Oc1ccccc1)CN(C[C@@H](O)[C@H](Cc1ccccc1)NC(=O)O[C@H]1CO[C@H]2OCC[C@H]21)S(=O)(=O)c1ccc2c(c1)OCO2	-	fluorescence	Ki	-	<0.001 µM
O=C(NCCO)[C@@H]1O[C@@H]2CN(Cc3ccccc3)C(=O)[C@H]1O2	-	FRET	inhibition	10 µM	0%
CC(C)N(C(=O)NCCCC(C)(C)CN(C[C@@H](O)[C@H](Cc1ccccc1)NC(=O)O[C@H]1CO[C@H]2OCC[C@H]21)S(=O)(=O)c1ccc2c(c1)OCO2)C(C)C	-	fluorescence	Ki	-	<0.001 µM
CC[C@@H](C)[C@H](NC(=O)C1CCCN1C(=O)[C@@H](OC)[C@H](Cc1ccccc1)NC(=O)[C@H](CC(N)=O)NC(=O)CCc1ccccc1)C(=O)N[C@H](C(N)=O)C(C)C	-	-	inhibition	5 µM	4.5%
COC(=O)[C@@H](NC(=O)[C@H](Cc1ccccc1)NC(=O)N[C@@H](Cc1ccccc1)C(=O)N[C@H](C(=O)OC)C(C)C)C(C)C	-	absorbance	inhibition	10 µM	<10%
COC(=O)[C@@H](CC(C)C)N1C[C@@H]2O[C@H](C(=O)N3CCCCC3)[C@@H](O2)C1=O	-	FRET	inhibition	10 µM	0%
Nc1cccc(C(=O)N[C@H](Cc2ccccc2)C[C@H](O)[C@H](Cc2ccccc2)NC(=O)c2cccc(N)c2)c1	PR-V821	substrate cleavage	fold resistance	-	16
CCCCOC(=O)[C@H](Cc1ccccc1)NC(=O)C(=O)N[C@@H](Cc1ccccc1)C(=O)OCCCC	-	absorbance	inhibition	10 µM	<10%
CNC(=O)NCCCC(C)(C)CN(C[C@@H](O)[C@H](Cc1ccccc1)NC(=O)O[C@H]1CO[C@H]2OCC[C@H]21)S(=O)(=O)c1ccc2c(c1)OCO2	-	fluorescence	Ki	-	<0.001 µM
CC[C@H](C)[C@H](NC(=O)[C@@H]1CCCN1C(=O)[C@H](O)[C@H](Cc1ccccc1)NC(=O)[C@H](CC(N)=O)NC(=O)CCc1ccccc1)C(=O)N[C@H](C(N)=O)C(C)C	-	-	inhibition	5 µM	80.7%
CC(C)(CCCCOC(=O)NO)CN(C[C@@H](O)[C@H](Cc1ccccc1)NC(=O)O[C@H]1CO[C@H]2OCC[C@H]21)S(=O)(=O)c1ccc2c(c1)OCO2	-	fluorescence	Ki	-	<0.001 µM
C[S+](C)C[C@H](NC(=O)COc1cccc2ccccc12)C(=O)N[C@@H](Cc1ccccc1)[C@H](O)C(=O)N1CSC(C)(C)[C@H]1C(=O)NC(C)(C)C	-	-	inhibition	0.05 µM	68%
CCOC(=O)N1CCN(C(=O)[C@@H]2O[C@]3(c4ccccc4)CN(C(c4ccccc4)c4ccccc4)C(=O)[C@H]2O3)CC1	-	FRET	inhibition	10 µM	0%
CC(C)(CCCCN=C(N)NC#N)CN(C[C@@H](O)[C@H](Cc1ccccc1)NC(=O)O[C@H]1CO[C@H]2OCC[C@H]21)S(=O)(=O)c1ccc2c(c1)OCO2	-	fluorescence	Ki	-	<0.001 µM

Again, the opening 3 rows:

structure	changes	read by	read-out	dose	value
CC(C)(CCCCNC(=O)C1CCCC1)CN(C[C@@H](O)[C@H](Cc1ccccc1)NC(=O)O[C@H]1CO[C@H]2OCC[C@H]21)S(=O)(=O)c1ccc2c(c1)OCO2	-	fluorescence	Ki	-	<0.001 µM
CC(C)C[C@@H](C(=O)NCCc1ccccc1)N1C[C@@H]2O[C@H](C(=O)N3CCCCC3)[C@@H](O2)C1=O	-	FRET	inhibition	10 µM	0%
CN(C)c1cccc(S(=O)(=O)N(C[C@@H](O)[C@H](Cc2ccccc2)NC(=O)O[C@H]2CO[C@H]3OCC[C@H]32)CC(C)(C)CCC#N)c1	-	fluorescence	Ki	-	<0.001 µM

An empty or dashed field is not shown. Percent inhibition refers to the dose given; in toxicity tests it is the harm to the cells. Fold resistance: result on the changed form divided by that on wild type.